Values after ≈ are worked out from the molar mass of the structure shown.
Tested on: Burkholderia pseudomallei
Experiment: Antimicrobial activity against Burkholderia pseudomallei 1026b after 24 hrs by broth microdilution method
Assay type: functional

Structure (SMILES) | MIC
C[n+]1c2cc(N)ccc2cc2ccc(N)cc21.[Cl-] | 32 µg/mL
CC(C)(O/N=C(\C(=O)N[C@@H]1C(=O)N2C(C(=O)[O-])=C(C[n+]3ccccc3)CS[C@H]12)c1csc(N)n1)C(=O)O | 4 µg/mL (≈ 7.32 µM)
C[C@H]1c2cccc(O)c2C(=O)C2=C(O)[C@]3(O)C(=O)C(C(N)=O)=C(O)[C@@H](N(C)C)[C@@H]3[C@@H](O)[C@@H]21.O | 0.5 µg/mL
CN(C)[C@@H]1C(O)=C(C(N)=O)C(=O)[C@@]2(O)C(O)=C3C(=O)c4c(O)cccc4[C@@](C)(O)[C@H]3C[C@@H]12 | 0.5 µg/mL (≈ 1.13 µM)
CCn1cc(C(=O)O)c(=O)c2cc(F)c(N3CCNCC3)cc21 | 4 µg/mL (≈ 12.5 µM)

Reference: ChEMBL document CHEMBL1275254 (2010)
